Measured values from several laboratories, pooled; numbers as filed in NIAID ChemDB.

Shared fields: growth or infection tests

Lines come from different laboratories, so protocols vary. Zones are inhibition diameters on agar. A number after MIC or MFC names an inhibition level or a share of isolates. ECn: concentration that inhibits the pathogen or its effect by n%. An empty or dashed field is not shown. a–b is a range or a potency band.

SMILES	organism	conditions	dose	read-out	strain	read by	value
CCOc1ccc2nc3cc(N=C4NC(=O)/C(=C\c5ccc([N+](=O)[O-])cc5)S4)ccc3c(N)c2c1	Candida kefyr	-	-	MIC	ATCC 8614	broth dilution	250 µg/mL
CN(C)c1ccc(C2c3ccc4ccccc4c3Oc3nc(-c4cc5ccccc5oc4=O)[nH]c(=O)c32)cc1	Candida rugosa	-	150 µg/mL	zone	-	agar diffusion / agar	16 mm
CCCCCCCCCCn1cc[n+](COCCOC[n+]2ccn(CCCCCCCCCC)c2)c1	Candida krusei	-	-	MIC100	ATCC 6258	agar diffusion	2 µM
CC1CC2=C(O1)c1ccccc1C(=O)C2=O	Candida tropicalis	-	-	MIC	Clinical isolate	broth dilution	10.1 µg/mL
C[C@H]1[C@H](O)[C@@H](C)/C=C/C=C/C=C/C=C/C=C/C=C/C=C/[C@H](O[C@@H]2O[C@H](C)[C@@H](O)[C@H](N)[C@@H]2O)C[C@@H]2O[C@](O)(C[C@@H](O)C[C@@H](O)CC[C@H](O)[C@@H](O)C[C@@H](O)CC(=O)O[C@H]1C)C[C@H](O)[C@H]2C(=O)O	Candida rugosa	-	150 µg/mL	zone	-	agar diffusion / agar	22 mm
CCCCCCCCCCCn1cc[n+](COCCCCOC[n+]2ccn(CCCCCCCCCCC)c2)c1	Candida krusei	-	-	MIC100	ATCC 6258	agar diffusion	8 µM
COC(=O)c1ccc(C[C@H](C(=O)OC)[C@@H](O)C(=O)OC)cc1	Candida pseudotropicalis	-	-	MIC	KKP 324	-	1 µg/mL
O=C(NN=C1CCCC1)c1snnc1C(F)(F)F	Candida rugosa	-	100 µg/mL	zone	NCIM 3462	agar diffusion / agar	0 mm
Clc1ccc(C(c2ccccc2)n2ccnc2)cc1	Candida glabrata	-	-	MFC	-	broth dilution	2 µg/mL
CCCCCCCCCCCn1cc[n+](COCCCOC[n+]2ccn(CCCCCCCCCCC)c2)c1	Candida krusei	-	-	MIC100	ATCC 6258	agar diffusion	8 µM
O=c1[nH]c(-c2cc3ccccc3oc2=O)nc2c1C(c1ccc(O)cc1)c1ccc3ccccc3c1O2	Candida rugosa	-	100 µg/mL	zone	-	agar diffusion / agar	11 mm
Clc1ccc(C(c2ccccc2)n2cnc3ccccc32)cc1	Candida glabrata	-	-	MFC	-	broth dilution	>256 µg/mL
Cc1nc2c(s1)C(=O)C(Nc1ccc(F)cc1)=C(Cl)C2=O	Candida utilis	-	-	MIC	KCCM 50662	broth dilution	25 µg/mL
NC(=NC1CCCC1)c1ccc(-c2ccc(-c3ccc(C(N)=NC4CCCC4)cc3)o2)cc1	Candida albicans	-	-	MFC	Isolate 2281	-	50 µg/mL
CCCCCCCCCCCCn1cc[n+](COCCCOC[n+]2ccn(CCCCCCCCCCCC)c2)c1	Candida krusei	-	-	MIC100	ATCC 6258	agar diffusion	8 µM
O=C(NN=Cc1ccc(F)cc1)c1snnc1C(F)(F)F	Candida rugosa	-	150 µg/mL	zone	NCIM 3462	agar diffusion / agar	0 mm
COc1cc(C2c3ccc4ccccc4c3Oc3nc(-c4cc5ccccc5oc4=O)[nH]c(=O)c32)ccc1O	Candida rugosa	-	150 µg/mL	zone	-	agar diffusion / agar	18 mm
Clc1ccccc1C(c1ccccc1)(c1ccccc1)n1ccnc1	Candida glabrata	pH 4	-	EC90	40 isolates	broth dilution	>16 µg/mL
Cc1ccc(/C=N/Nc2ccnc3cc(Cl)ccc23)cc1	Candida famata	-	-	MFC	-	-	40 µg/mL
Clc1ccc(C(c2ccccc2)n2cncn2)cc1	Candida dubliniensis	-	-	MIC90	-	agar	4 µg/mL
CC(=NNC(=O)c1snnc1C(F)(F)F)c1ccc(Br)cc1Br	Candida rugosa	-	150 µg/mL	zone	NCIM 3462	agar diffusion / agar	0 mm
Cc1nc2c(s1)C(=O)C(Nc1ccc(C#N)cc1)=C(Cl)C2=O	Candida utilis	-	-	MIC	KCCM 50662	broth dilution	25 µg/mL
O=C1S/C(=C\c2ccoc2)C(=O)N1CC(O)(Cn1nccn1)c1ccc(F)cc1F	Candida colliculosa	-	-	MIC50	Fluconazole-resistant 100	-	2.31 µg/mL
CC[C@@H]([C@H](C)O)n1ncn(-c2ccc(N3CCN(c4ccc(OC[C@@H]5CO[C@@](Cn6cncn6)(c6ccc(F)cc6F)C5)cc4)CC3)cc2)c1=O	Candida guilliermondii	-	-	MIC50	-	-	0.015–2 µg/mL
CCCCCCCCCn1cc[n+](COCCOC[n+]2ccn(CCCCCCCCC)c2)c1	Candida krusei	-	-	MIC100	ATCC 6258	agar diffusion	2 µM
CC(=O)N1CCN(c2ccc(OC[C@H]3CO[C@](Cn4ccnc4)(c4ccc(Cl)cc4Cl)O3)cc2)CC1	Candida glabrata	pH 7	-	EC90	40 isolates	broth dilution	1 µg/mL
CCCCCOc1ccc(-c2cc(-c3ccc(C(=O)N[C@H]4C[C@@H](O)[C@@H](O)NC(=O)[C@@H]5[C@@H](O)[C@@H](C)CN5C(=O)[C@H]([C@H](O)CC(N)=O)NC(=O)[C@H]([C@H](O)[C@@H](O)c5ccc(O)c(OS(=O)(=O)O)c5)NC(=O)[C@@H]5C[C@@H](O)CN5C(=O)[C@H]([C@@H](C)O)NC4=O)cc3)no2)cc1	Candida spp.	-	-	MIC50	fluconazole-sensitive	broth dilution	0.016 µg/mL
CC(C)=NNC(=O)c1snnc1C(F)(F)F	Candida rugosa	-	150 µg/mL	zone	NCIM 3462	agar diffusion / agar	0 mm
O=C(c1ccccc1)C(c1ccccc1)n1ccnc1	Candida glabrata	-	-	MFC	-	broth dilution	256 µg/mL
COc1ccc(NC2=C(Cl)C(=O)c3nc(C)sc3C2=O)cc1	Candida utilis	-	-	MIC	KCCM 50662	broth dilution	6.3 µg/mL
CCC(C)CC(C)CCCCCCCCC(=O)N[C@H]1C[C@@H](O)[C@H](NCCN)NC(=O)[C@@H]2[C@@H](O)CCN2C(=O)[C@H]([C@H](O)CCN)NC(=O)[C@H]([C@H](O)[C@@H](O)c2ccc(O)cc2)NC(=O)[C@@H]2C[C@@H](O)CN2C(=O)[C@H]([C@@H](C)O)NC1=O	Candida glabrata	pH 4	-	MIC	40 isolates	broth dilution	0.5 µg/mL
C=CCc1ccc(OC)c(OC)c1	Candida albicans	-	-	MIC90	3178	turbidity	350 µg/mL
CCCCCCCCCCCCCCCCn1cc[n+](COCCCCCOC[n+]2ccn(CCCCCCCCCCCCCCCC)c2)c1	Candida krusei	-	-	MIC100	ATCC 6258	agar diffusion	6 µM
CCC(C)CC(C)CCCCCCCCC(=O)N[C@H]1C[C@@H](O)[C@H](NCCN)NC(=O)[C@@H]2[C@@H](O)CCN2C(=O)[C@H]([C@H](O)CCN)NC(=O)[C@H]([C@H](O)[C@@H](O)c2ccc(O)cc2)NC(=O)[C@@H]2C[C@@H](O)CN2C(=O)[C@H]([C@@H](C)O)NC1=O	Candida guilliermondii	-	-	MIC50	-	-	0.03–16 µg/mL
c1ccc(C(c2ccccc2)n2ccnc2)cc1	Candida dubliniensis	-	-	MFC	-	broth dilution	1 µg/mL
Nc1[nH]c(=O)ncc1F	Candida glabrata	pH 4	-	EC90	40 isolates	broth dilution	0.125 µg/mL
Cc1ccc(C2c3ccc4ccccc4c3Oc3nc(-c4cc5ccccc5oc4=O)[nH]c(=O)c32)cc1	Candida rugosa	-	150 µg/mL	zone	-	agar diffusion / agar	16 mm
C[C@@H](c1ncncc1F)[C@](O)(Cn1cncn1)c1ccc(F)cc1F	Candida spp.	-	-	MIC90	fluconazole-sensitive	broth dilution	0.13 µg/mL